Reference: patent US4772547 (dated 1988)

Assay: general procedure: Boc solid-phase peptide synthesis; benzhydrylamine (BHA) resin; symmetric anhydride procedure
Details: whole synthesis

Row | Substance | crude mass [mg] | isolated mass [mg]
1 | HTLV-III env (487-511)-Cys-NH2 | 435 | 31.1
2 | HTLV-III env Cys-(500-511)-NH2 | 741 | 46.1
